Sequences of proteins named here, by UniProt entry; tags and fusion partners are left off.
UniProt P21817, whole entry: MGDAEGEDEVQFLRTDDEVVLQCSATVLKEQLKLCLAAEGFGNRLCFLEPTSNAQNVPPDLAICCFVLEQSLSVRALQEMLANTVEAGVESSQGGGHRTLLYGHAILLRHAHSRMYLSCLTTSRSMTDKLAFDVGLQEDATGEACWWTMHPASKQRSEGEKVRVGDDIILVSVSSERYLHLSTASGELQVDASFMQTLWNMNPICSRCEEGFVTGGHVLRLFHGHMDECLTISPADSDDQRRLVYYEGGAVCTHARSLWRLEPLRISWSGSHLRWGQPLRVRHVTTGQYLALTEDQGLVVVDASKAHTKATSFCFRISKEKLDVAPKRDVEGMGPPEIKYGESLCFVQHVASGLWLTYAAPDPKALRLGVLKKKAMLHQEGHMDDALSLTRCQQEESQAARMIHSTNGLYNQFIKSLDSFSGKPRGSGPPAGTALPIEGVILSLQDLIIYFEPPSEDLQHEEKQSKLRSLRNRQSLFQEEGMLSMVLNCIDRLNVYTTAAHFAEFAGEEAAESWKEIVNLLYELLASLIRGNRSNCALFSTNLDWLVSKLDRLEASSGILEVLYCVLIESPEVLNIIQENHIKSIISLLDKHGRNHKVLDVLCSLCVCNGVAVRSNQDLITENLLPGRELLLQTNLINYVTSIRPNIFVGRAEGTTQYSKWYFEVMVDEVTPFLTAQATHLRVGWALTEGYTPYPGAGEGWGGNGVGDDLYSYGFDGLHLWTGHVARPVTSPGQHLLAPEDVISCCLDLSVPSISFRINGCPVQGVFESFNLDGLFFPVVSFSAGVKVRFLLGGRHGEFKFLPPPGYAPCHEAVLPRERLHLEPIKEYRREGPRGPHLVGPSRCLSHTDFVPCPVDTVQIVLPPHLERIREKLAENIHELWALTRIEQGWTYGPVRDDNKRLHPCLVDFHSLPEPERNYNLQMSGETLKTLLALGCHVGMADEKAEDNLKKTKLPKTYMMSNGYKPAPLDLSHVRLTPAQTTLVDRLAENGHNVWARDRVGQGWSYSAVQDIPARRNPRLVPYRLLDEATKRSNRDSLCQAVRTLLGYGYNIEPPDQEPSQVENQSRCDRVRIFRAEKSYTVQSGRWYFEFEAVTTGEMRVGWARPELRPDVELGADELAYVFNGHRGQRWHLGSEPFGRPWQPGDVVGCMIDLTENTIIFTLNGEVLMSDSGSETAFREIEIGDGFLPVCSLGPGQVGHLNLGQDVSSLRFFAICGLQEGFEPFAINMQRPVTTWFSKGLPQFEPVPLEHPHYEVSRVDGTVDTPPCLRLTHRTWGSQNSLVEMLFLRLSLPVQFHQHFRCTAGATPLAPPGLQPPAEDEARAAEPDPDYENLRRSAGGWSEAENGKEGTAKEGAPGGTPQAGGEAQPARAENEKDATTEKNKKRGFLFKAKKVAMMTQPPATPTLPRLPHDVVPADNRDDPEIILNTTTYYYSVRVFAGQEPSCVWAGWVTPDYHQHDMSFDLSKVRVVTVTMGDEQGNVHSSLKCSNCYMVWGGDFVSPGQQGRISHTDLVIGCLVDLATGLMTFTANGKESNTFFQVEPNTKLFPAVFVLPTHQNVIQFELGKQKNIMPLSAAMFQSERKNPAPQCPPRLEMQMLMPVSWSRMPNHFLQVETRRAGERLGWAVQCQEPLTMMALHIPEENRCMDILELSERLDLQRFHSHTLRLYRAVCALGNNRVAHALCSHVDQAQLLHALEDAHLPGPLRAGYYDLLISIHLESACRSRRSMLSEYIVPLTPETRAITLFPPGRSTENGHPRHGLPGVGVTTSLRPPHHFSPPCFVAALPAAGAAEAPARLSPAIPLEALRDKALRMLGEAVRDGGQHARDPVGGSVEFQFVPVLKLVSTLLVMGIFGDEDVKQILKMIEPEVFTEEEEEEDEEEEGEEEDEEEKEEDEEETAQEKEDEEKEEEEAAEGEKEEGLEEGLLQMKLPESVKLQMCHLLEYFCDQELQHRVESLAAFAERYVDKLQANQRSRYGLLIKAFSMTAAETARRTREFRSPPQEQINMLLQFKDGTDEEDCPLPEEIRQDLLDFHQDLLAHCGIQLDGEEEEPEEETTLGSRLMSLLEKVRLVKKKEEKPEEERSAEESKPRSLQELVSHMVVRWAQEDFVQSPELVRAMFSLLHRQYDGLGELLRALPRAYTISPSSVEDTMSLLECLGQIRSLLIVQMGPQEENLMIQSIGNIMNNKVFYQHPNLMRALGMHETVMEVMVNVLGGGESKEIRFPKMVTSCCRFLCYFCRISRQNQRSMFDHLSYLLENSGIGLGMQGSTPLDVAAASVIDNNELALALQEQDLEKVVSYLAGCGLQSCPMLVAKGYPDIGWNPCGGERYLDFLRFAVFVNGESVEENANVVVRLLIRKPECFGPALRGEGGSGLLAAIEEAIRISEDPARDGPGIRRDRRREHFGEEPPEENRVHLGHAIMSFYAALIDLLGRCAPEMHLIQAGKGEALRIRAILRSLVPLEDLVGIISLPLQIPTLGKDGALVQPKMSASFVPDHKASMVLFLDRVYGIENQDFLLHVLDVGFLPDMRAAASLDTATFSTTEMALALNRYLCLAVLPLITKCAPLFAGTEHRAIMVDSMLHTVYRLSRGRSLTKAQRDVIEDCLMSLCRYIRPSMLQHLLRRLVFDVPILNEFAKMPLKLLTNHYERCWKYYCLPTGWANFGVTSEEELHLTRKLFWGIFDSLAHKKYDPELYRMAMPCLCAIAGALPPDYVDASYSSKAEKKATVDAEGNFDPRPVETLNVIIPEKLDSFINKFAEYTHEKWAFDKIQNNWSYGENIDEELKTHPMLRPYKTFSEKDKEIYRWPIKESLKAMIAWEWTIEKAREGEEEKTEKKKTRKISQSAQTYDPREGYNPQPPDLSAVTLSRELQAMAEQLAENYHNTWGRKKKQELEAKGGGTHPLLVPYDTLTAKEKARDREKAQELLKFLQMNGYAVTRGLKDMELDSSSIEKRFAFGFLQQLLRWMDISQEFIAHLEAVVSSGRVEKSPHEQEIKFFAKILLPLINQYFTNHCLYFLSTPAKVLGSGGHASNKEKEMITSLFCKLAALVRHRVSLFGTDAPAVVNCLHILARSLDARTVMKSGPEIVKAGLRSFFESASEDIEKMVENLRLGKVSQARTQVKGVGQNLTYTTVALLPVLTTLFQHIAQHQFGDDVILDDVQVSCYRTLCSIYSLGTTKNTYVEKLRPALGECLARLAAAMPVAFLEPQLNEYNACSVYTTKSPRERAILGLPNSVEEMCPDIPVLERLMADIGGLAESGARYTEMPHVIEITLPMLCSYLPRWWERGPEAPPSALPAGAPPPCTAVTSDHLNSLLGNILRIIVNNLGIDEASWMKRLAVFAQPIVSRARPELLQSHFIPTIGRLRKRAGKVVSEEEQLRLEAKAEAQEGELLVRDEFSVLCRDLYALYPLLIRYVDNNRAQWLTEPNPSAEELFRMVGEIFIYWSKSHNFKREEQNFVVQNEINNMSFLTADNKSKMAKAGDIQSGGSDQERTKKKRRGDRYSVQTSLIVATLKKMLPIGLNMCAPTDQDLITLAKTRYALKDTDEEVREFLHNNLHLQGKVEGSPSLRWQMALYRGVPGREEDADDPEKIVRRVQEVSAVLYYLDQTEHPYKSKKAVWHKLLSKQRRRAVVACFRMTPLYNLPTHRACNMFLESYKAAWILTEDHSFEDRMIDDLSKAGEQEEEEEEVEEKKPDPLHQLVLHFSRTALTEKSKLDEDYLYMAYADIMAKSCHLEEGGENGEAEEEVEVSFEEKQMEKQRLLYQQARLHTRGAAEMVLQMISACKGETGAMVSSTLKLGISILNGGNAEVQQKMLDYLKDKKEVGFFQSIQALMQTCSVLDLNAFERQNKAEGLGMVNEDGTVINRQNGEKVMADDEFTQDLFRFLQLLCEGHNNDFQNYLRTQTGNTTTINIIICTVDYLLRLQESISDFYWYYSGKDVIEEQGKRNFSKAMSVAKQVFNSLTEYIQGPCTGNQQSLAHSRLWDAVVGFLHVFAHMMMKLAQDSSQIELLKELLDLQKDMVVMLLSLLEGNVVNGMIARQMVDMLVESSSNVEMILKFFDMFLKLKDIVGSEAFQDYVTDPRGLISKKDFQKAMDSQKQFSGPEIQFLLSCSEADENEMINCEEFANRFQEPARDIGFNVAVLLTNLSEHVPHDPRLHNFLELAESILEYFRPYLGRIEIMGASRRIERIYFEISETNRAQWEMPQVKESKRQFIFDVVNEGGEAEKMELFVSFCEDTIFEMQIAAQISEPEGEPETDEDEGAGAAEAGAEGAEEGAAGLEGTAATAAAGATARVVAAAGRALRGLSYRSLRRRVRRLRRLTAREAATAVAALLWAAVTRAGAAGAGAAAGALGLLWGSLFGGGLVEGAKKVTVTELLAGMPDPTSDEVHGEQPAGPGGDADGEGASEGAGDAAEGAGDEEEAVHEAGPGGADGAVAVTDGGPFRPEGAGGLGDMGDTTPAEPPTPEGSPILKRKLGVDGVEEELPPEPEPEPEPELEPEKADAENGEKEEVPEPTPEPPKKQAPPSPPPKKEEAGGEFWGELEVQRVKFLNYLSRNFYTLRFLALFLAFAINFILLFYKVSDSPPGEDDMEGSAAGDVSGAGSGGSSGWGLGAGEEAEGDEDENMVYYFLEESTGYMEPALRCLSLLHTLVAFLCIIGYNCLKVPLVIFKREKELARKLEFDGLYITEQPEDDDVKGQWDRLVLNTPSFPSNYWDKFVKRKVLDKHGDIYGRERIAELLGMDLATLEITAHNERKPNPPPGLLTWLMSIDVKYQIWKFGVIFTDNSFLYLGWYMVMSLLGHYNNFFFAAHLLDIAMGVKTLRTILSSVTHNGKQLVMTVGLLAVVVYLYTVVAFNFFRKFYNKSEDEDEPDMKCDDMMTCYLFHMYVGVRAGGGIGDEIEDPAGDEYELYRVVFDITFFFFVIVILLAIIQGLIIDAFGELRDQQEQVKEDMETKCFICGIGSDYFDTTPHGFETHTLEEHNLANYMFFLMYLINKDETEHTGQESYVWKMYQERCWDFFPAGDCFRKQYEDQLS

In ChEMBL document CHEMBL1129786, “Ryanodine action at calcium release channels. 1. importance of hydroxyl substituents” (J Med Chem, 1996):

Columns and labels:
[1] = molecular target: Ryanodine receptor 1 (Homo sapiens) (UniProt P21817); experiment: Potency compared to [3H]ryanodine for activity in canine ventricle.; conditions: Cardiac ventricle
[2] = molecular target: Ryanodine receptor 1 (Homo sapiens) (UniProt P21817); experiment: Potency compared to [3H]ryanodine for activity in mouse brain.
[3] = molecular target: Ryanodine receptor 1 (Oryctolagus cuniculus) (UniProt P11716); experiment: Potency compared to [3H]ryanodine for activity in rabbit muscle.; conditions: Muscle tissue

| SMILES | Potency ([1]; Canis lupus familiaris) | Potency [2] | Potency [3] | Potency ([1]; Oryctolagus cuniculus) |
| --- | --- | --- | --- | --- |
| CC1CCC2(O)C3(OC4(O)CC2(C)C2(O)C(OC(=O)c5ccc[nH]5)C(O)(C(C)C)C4(C)C23)C1O (configuration not stated) | 17 | 54 | 64 |  |
| CC1CCC2(O)C3(C)CC4(O)OC2(C1O)C1(O)C3C(OC(=O)c2ccc[nH]2)C(O)(C(C)C)C41C (configuration not stated) | 9.6 | 21 | 19 |  |
| C=C1CCC2(O)C3(C)CC4(O)OC2(C1C)C1(O)C3(C)C(OC(=O)c2ccc[nH]2)C(O)(C(C)C)C41C (configuration not stated) |  | 1.8 | 3.5 |  |
| C=C1CCC23OB(C4CCCCC4)OC45C(OC(=O)c6ccc[nH]6)C(O)(C(C)C)C6(C)C(O)(CC24C)OC3(C1O)C56O (configuration not stated) |  |  | 47 |  |
| C=C1CCC2(O)C3(C)CC4(O)OC2(C1O)C1(O)C3(O)C(OC(=O)c2cccn2C)C(O)(C(C)C)C41C (configuration not stated) | 19 | 13 | 12 |  |
| C=C1CCC23OB(O)OC45C(OC(=O)c6ccc[nH]6)C(O)(C(C)C)C6(C)C(O)(CC24C)OC3(C1O)C56O (configuration not stated) | 43 | 75 | 100 |  |
| CC1CCC2(O)C3(C)CC4(O)OC25C1OP(C)(=O)OC51C3(O)C(OC(=O)c2ccc[nH]2)C(O)(C(C)C)C41C (configuration not stated) | 1.9 | 3.9 | 3.6 |  |
| CC1CCC2(O)C3(OC4(O)CC2(C)C2(NO)C(OC(=O)c5ccc[nH]5)C(O)(C(C)C)C4(C)C23)C1O (configuration not stated) | 6.9 | 43 | 67 |  |
| CC1CCC2(O)C3(C)CC4(O)OC2(C1O)C1(O)C3(O)C(OC(=O)c2ccc[nH]2)C2(OC2(C)C)C41C (configuration not stated) | 7.9 | 1.4 |  | 0.8 |
| CC1CCC2(O)C3(C)CC4(O)OC2(C1O)C1(O)C3(NOCc2ccccc2)C(OC(=O)c2ccc[nH]2)C(O)(C(C)C)C41C (configuration not stated) | 16 | 8.3 | 21 |  |
| CC1CCC2(O)C34OC5(O)C[C@]2(C)C2(O)C(OC(=O)c6ccc[nH]6)C(O)(C(C)C)C5(C)C32OP(C)(=O)OC14 (some centres not stated) |  | 3 | 4.2 |  |
| C=C1CCC23OB(c4ccccc4)OC45C(OC(=O)c6ccc[nH]6)C(O)(C(C)C)C6(C)C(O)(CC24C)OC3(C1O)C56O (configuration not stated) |  |  | 71 |  |
| CC1CCC2(O)C3(C)CC4(O)OC2(C1O)C1(O)C3(O)C(OC(=O)c2ccc[nH]2)C(O)(C(C)(C)O)C41C (configuration not stated) | 4 | 2.5 | 2 |  |
| C=C1CCC2(O)C3(C)CC4(O)OC2(C1O)C1(O)C3(O)C(OC(=O)c2ccc[nH]2)C2(OB(O)OC2(C)C)C41C (configuration not stated) | 2 | 5.8 | 4.8 |  |
| C=C1CCC2(O)C3(C)CC4(O)OC2(C1O)C1(O)C4(C)C(C(C)C)C(OC(=O)c2ccc[nH]2)C31O (configuration not stated) | 31 | 15 | 13 |  |
| C=C1CCC2(O)C3(C)CC4(O)OC25C1OP(=O)(NC)OC51C3(O)C(OC(=O)c2ccc[nH]2)C(O)(C(C)C)C41C (configuration not stated) | 5 | 5 | 4.5 |  |
| C=C1CCC23OB(c4ccsc4)OC45C(OC(=O)c6ccc[nH]6)C(O)(C(C)C)C6(C)C(O)(CC24C)OC3(C1O)C56O (configuration not stated) |  |  | 90 | 69 |
| C=C1CCC23OB(C)OC45C(OC(=O)c6ccc[nH]6)C(O)(C(C)C)C6(C)C(O)(CC24C)OC3(C1O)C56O (configuration not stated) |  |  | 22 | 48 |
| C=C1CCC2(O)C3(C)CC4(O)OC2(C1O)C1(O)C3(C)C(OC(=O)c2ccc[nH]2)C(O)(C(C)C)C41C (configuration not stated) | 6.6 | 21 | 29 |  |
| CONC12C(OC(=O)c3ccc[nH]3)C(O)(C(C)C)C3(C)C1C14OC3(O)CC2(C)C1(O)CCC(C)C4O (configuration not stated) | 7.3 | 28 | 34 |  |
